Pooled drug test results. Numbers come from NIAID ChemDB, via PubChem.

Common to all: cytotoxicity tests; cell line: MOLT-4; read-out: CC50

Rows are shuffled and stem from different studies. CCn is the concentration with n% toxicity to the cells. An empty or dashed field is not shown.

structure | method | value
Nc1nc(=O)n([C@@H]2CS[C@H](CO)O2)cc1F |  | >100 µM
OC[C@H]1N[C@H](CO)[C@@H](O)[C@@H]1O |  | 433 µg/mL
NC(=O)c1csc([C@@H]2O[C@H](CO)[C@@H](O)[C@H]2O)n1 |  | 5.2 µM
CC(C)(C)OC(=O)[C@@H]1CCCN1C[C@H](O)[C@H](Cc1ccccc1)NC(=O)[C@H](CC(N)=O)NC(=O)OCc1ccccc1 |  | 214 µg/mL
Nc1nc(NC2CC2)c2ncn([C@H]3C=C[C@@H](CO)C3)c2n1 |  | 20 µM
OC[C@@H]1[C@@H](O)[C@H](O)[C@@H](O)CN1C/C=C/c1ccccc1 |  | >400 µg/mL
CN=C1CN=C(c2ccc[nH]2)c2cc(Cl)ccc2N1 |  | 2 µM
CCOCn1c(Cc2cc(C)cc(C)c2)c(CC)c(=O)[nH]c1=O |  | 168 µM
Cc1ccc(NC(=O)C23CC4CC(CC(C4)C2)C3)c(C(=O)N/N=C/c2cccs2)c1 |  | 48.6 µM
Nc1nc(NC2CC2)c2ncn([C@H]3C=C[C@@H](CO)C3)c2n1 |  | 18 µM
Nc1c(S(=O)(=O)O)cc(Nc2ccc(Nc3nc(Cl)nc(Nc4ccccc4S(=O)(=O)O)n3)c(S(=O)(=O)O)c2)c2c1C(=O)c1ccccc1C2=O |  | >10 µM
CCOP(=O)(N[C@@H](CC(C)C)C(=O)OC)OC[C@H]1O[C@@H](n2cc(C)c(=O)[nH]c2=O)C[C@@H]1N=[N+]=[N-] |  | 322 µg/mL
Nc1nc2c(ncn2[C@@H]2C[C@H](CO)[C@H]2CO)c(=O)[nH]1 |  | 50 µM
O=C(O)c1cn(C2CC2)c2c(OC(F)F)c(N3CCN(c4ncccn4)CC3)c(F)cc2c1=O |  | 15 µM
Cc1ccc(/C=N/NC(=O)c2cc(Cl)ccc2NC(=O)C23CC4CC(CC(C4)C2)C3)o1 |  | 39.9 µM
CCOCn1c(Cc2ccccc2)c(C(C)C)c(=O)[nH]c1=O |  | 181 µM
COc1cc(NC(=O)C23CC4CC(CC(C4)C2)C3)c(C(=O)NN)cc1OC |  | 17.4 µM
c1cc(CN2CCCNCCNCCCNCC2)ccc1CN1CCCNCCNCCCNCC1 |  | >100 µg/mL
c1cc(CN2CCNCCNCCNCC2)cc(CN2CCNCCNCCNCC2)c1 |  | 17 µM
Cc1ccc(NC(=O)C23CC4CC(CC(C4)C2)C3)c(C(=O)NN)c1 |  | 9.2 µM
Cn1cc(C(=O)O)c(=O)c2cc(F)c(N3CC=C(c4ccccc4)CC3)c(C(F)(F)F)c21 |  | 1.6 µM
Nc1nc(NC2CC2)c2ncn([C@H]3C=C[C@@H](CO)O3)c2n1 |  | 75 µM
O=S(=O)(O)c1cc(NS(=O)(=O)c2ccc(-c3ccc(S(=O)(=O)Nc4cc(S(=O)(=O)O)c5cccc(S(=O)(=O)O)c5c4)cc3)cc2)cc2c(S(=O)(=O)O)cccc12 |  | >500 µM
Nc1ccn([C@@H]2O[C@H](CO)C[C@@H]2F)c(=O)n1 |  | 7 µg/mL
CCCNC(=O)c1cc(C)ccc1NC(=O)C12CC3CC(CC(C3)C1)C2 |  | 51.1 µM
NC(=O)c1c[se]c(C2OC(CO)C(O)C2O)c1 |  | 0.3 µM
CCCNC(=O)c1cc(OC)c(OC)cc1NC(=O)C12CC3CC(CC(C3)C1)C2 |  | 36.9 µM
O=c1ccn([C@H]2CC[C@@H](CO)O2)c(=O)[nH]1 |  | 322 µg/mL
O=C1CN=C(c2ccc[nH]2)c2cc(Cl)ccc2N1 |  | 1.6 µg/mL
CCCCCCCCCCCCSCC(COP(=O)([O-])OCC[N+](C)(C)C)OCCCCCCCCC(=O)OCC(=O)OC[C@H]1O[C@@H](n2cc(C)c(=O)[nH]c2=O)C[C@@H]1N=[N+]=[N-] | trypan blue | >100 µM
Nc1ccn([C@@H]2CC[C@H](CO)O2)c(=O)n1 |  | 22 µM
NOCc1c(F)cccc1Cl |  | 43.5 µg/mL
CC(=O)c1ccc(C)cc1NC(C(N)=O)c1c(Cl)cccc1Cl |  | 66 µM
Nc1ccn([C@H]2CC[C@@H](CO)O2)c(=O)n1 |  | 1.4 µM
Nc1nc(N)c2ncn([C@H]3CO[C@@H](CO)O3)c2n1 |  | >500 µM
O=S(=O)(O)c1cc(O)c2c(NS(=O)(=O)c3ccc(-c4ccc(S(=O)(=O)Nc5cc(S(=O)(=O)O)cc6cc(S(=O)(=O)O)cc(O)c56)cc4)cc3)cc(S(=O)(=O)O)cc2c1 |  | >500 µM
O=C(O)P(=O)(O)O |  | 433 µg/mL
CCCN(C)C(=O)Oc1nsnc1-c1c(Cl)cccc1Cl |  | 215 µM
C[C@H](CCC(=O)NCCS(=O)(=O)O)[C@H]1CC[C@H]2[C@@H]3CC[C@@H]4C[C@H](O)CC[C@]4(C)C3CC[C@]12C |  | >500 µg/mL
NNC(=O)c1cc(Br)ccc1NC(=O)C12CC3CC(CC(C3)C1)C2 |  | 4 µM

A second listing of 5 rows from above:

{"structure": "Nc1nc(N)c2ncn([C@H]3CO[C@@H](CO)O3)c2n1", "value": ">500 µM"}
{"structure": "CCCN(C)C(=O)Oc1nsnc1-c1c(Cl)cccc1Cl", "value": "215 µM"}
{"structure": "Cc1ccc(NC(=O)C23CC4CC(CC(C4)C2)C3)c(C(=O)N/N=C/c2cccs2)c1", "value": "48.6 µM"}
{"structure": "CCCNC(=O)c1cc(OC)c(OC)cc1NC(=O)C12CC3CC(CC(C3)C1)C2", "value": "36.9 µM"}
{"structure": "CCCNC(=O)c1cc(C)ccc1NC(=O)C12CC3CC(CC(C3)C1)C2", "value": "51.1 µM"}